The values that follow come from patent US20210283199A1 (priority 2020, published 2021).

In the assay the test system is perfringolysin O (pfoA) toxin secreted by C. perfringens CP4.6. The assay is described as follows: Hemolysis bioassay on sheep blood agar with cell-free supernatant. To be noted: 1, 10 and 50 μM fengycin, 6 h culture, FIG. 9A. It counts as cell-based, Clostridium perfringens.

In the case of fengycin, the “pfoA gene expression (PFO production)” value is “inhibited pfoA gene expression in a concentration-dependent manner”.
